# Assay results: article PMC6128854 (Scientific Reports, 2018)
# Sequences of proteins named here, by UniProt entry; tags and fusion partners are left off.
# UniProt Q00975, whole entry, looked up: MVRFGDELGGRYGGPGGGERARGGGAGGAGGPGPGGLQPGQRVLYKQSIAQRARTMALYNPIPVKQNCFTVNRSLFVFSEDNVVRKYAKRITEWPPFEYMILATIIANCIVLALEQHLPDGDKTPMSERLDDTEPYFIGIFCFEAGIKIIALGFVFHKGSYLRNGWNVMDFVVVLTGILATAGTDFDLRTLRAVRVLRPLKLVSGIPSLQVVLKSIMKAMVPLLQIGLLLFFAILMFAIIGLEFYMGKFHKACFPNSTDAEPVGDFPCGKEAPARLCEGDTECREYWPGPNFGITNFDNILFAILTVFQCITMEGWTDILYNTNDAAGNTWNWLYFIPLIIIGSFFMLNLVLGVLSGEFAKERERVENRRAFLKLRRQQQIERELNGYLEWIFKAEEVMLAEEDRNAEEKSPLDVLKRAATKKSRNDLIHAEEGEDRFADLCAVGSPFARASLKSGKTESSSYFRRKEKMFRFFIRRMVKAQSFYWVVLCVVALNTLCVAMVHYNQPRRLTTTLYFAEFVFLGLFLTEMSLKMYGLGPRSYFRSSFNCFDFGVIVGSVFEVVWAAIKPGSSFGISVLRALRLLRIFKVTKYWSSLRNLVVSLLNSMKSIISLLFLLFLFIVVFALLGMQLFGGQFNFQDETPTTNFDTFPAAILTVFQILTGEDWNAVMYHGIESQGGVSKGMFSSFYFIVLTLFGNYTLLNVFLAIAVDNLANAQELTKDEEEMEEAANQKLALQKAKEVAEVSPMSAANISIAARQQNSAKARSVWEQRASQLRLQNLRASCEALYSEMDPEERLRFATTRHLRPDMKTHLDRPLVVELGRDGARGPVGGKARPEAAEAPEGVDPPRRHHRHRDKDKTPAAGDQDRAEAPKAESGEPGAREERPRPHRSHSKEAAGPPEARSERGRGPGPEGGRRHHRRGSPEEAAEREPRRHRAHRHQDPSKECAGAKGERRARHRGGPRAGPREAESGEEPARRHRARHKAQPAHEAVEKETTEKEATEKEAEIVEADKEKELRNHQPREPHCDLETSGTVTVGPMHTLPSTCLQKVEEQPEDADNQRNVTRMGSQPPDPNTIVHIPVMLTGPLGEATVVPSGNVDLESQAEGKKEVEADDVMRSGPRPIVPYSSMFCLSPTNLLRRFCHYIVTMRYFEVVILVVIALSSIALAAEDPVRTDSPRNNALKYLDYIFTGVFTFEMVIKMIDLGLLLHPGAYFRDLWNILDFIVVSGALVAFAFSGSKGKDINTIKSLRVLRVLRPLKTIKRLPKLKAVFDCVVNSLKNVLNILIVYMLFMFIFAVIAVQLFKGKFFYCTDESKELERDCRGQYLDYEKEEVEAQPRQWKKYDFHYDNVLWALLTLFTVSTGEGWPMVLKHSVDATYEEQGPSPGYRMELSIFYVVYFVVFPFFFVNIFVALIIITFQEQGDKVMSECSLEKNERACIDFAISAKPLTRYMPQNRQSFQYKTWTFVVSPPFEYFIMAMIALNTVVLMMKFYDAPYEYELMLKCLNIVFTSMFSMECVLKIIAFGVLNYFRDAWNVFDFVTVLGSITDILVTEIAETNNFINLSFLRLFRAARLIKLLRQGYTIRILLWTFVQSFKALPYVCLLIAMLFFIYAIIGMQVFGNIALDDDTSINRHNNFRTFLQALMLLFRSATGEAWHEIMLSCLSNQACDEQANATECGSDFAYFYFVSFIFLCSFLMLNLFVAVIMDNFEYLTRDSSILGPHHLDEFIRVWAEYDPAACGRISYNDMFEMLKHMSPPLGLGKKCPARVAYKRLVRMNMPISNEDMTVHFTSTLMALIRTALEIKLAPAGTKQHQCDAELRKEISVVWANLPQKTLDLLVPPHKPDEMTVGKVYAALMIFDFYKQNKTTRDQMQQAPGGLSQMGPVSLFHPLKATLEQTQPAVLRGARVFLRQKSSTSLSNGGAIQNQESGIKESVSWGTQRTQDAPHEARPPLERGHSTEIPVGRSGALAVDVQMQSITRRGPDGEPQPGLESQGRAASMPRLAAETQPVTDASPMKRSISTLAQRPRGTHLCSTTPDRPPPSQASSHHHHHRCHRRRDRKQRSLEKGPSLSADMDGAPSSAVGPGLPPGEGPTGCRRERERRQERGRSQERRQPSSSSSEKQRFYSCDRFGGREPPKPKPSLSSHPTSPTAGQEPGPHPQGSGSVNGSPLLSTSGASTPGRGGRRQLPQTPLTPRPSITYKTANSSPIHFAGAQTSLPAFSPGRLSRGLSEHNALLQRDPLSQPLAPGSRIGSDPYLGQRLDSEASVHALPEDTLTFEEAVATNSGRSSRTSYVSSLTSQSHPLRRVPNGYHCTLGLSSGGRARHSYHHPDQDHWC
# Biological target: Cav2.2 in human SH-SY5Y cell membranes (Homo sapiens, UniProt Q00975)
# Experiment: 125I-GVIA radioligand displacement, SH-SY5Y cell membranes
# Assay type: binding
smiles,measurement,value
CSCC[C@@H]1NC(=O)[C@H](CC(C)C)NC(=O)[C@H](CCCNC(=N)N)NC(=O)[C@H](CO)NC(=O)[C@@H]2CSSC[C@@H]3NC(=O)[C@H](CO)NC(=O)CNC(=O)[C@H]([C@@H](C)O)NC(=O)[C@H](CSSC[C@H](N)C(=O)N[C@@H](CCCCN)C(=O)NCC(=O)N[C@@H](CCCCN)C(=O)NCC(=O)N[C@@H](C)C(=O)N[C@@H](CCCCN)C(=O)N2)NC(=O)[C@H](CSSC[C@@H](C(N)=O)NC(=O)[C@H](CCCCN)NC(=O)CNC(=O)[C@H](CO)NC(=O)[C@H](CCCNC(=N)N)NC3=O)NC(=O)[C@H](CC(=O)O)NC(=O)[C@H](CCCNC(=N)N)NC1=O,fold decrease in binding affinity over MVIIA,~ 100 fold
